# Structure probing of HIV-1 leader RNA with DMS

Data from the supplement of Ye et al. 2022, doi:10.1038/s41594-022-00746-2.

RNA: 5' end of the HIV-1 NL4-3 genome, made in vitro. Positions 1-437 read:
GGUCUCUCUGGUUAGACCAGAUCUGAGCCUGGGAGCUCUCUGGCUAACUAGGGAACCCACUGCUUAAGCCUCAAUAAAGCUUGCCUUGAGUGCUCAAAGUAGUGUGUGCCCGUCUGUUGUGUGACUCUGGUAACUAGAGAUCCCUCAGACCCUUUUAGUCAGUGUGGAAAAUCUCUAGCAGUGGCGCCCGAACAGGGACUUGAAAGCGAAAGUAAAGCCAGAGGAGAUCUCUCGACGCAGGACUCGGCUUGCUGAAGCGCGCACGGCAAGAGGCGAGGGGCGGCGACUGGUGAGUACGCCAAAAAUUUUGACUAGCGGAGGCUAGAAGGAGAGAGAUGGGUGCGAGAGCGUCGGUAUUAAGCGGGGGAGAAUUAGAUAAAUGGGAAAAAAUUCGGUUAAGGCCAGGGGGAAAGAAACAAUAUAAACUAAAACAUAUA

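Randomly mutated transcripts starting with one, two or three G (1G, 2G, 3G), capped or uncapped, were folded for 30 min at 37 °C. High salt was 300 mM KCl and 5 mM MgCl2, low salt 40 mM KCl and 0.1 mM MgCl2; monomer and dimer were parted on a native gel. Each band was probed in the gel with DMS (170 mM, 15 min, 37 °C), with ethanol as control, and sequenced.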

Scale: normalised reactivity, A and C only; low values point to paired or protected bases, higher values to unpaired ones. One numbering serves 1G, 2G and 3G. A position is written with its base.

position,domain,1G capped high-salt dimer,1G capped high-salt monomer
A271,SL1,0.58,0.54
C274,SL1,0.24,0.59
A276,SL1,0.38,0.94
C281,none,0.46,0.43
C284,SL2,0.16,0.19
A286,SL2,0.66,0.54
C287,SL2,0.41,0.32
A293,SL2,0.93,0.80
A296,SL2,0.62,0.58
C297,SL2,0.14,0.16
C299,SL2,0.07,0.07
C300,none,0.09,0.08
A301,none,0.26,0.24
A302,none,1.22,1.21
A303,none,0.08,0.08
A304,none,0.20,0.16
A305,none,0.71,0.74
A311,none,1.36,1.19
C312,SL3,0.08,0.11
A314,SL3,0.04,0.04
C316,SL3,0.05,0.10
A319,SL3,0.96,0.86
C322,SL3,0.04,0.04
A324,SL3,0.07,0.12
A326,none,0.97,0.85
A327,none,1.07,1.00
A330,none,0.83,0.95
A332,none,0.52,0.62
A334,AUG,0.45,0.51
A336,AUG,0.85,0.87
C343,AUG,0.32,0.37
A345,none,1.31,1.22
A347,none,0.32,0.27
C349,none,0.32,0.33
C352,none,0.45,0.44
A356,none,0.97,1.03
A359,none,0.59,0.42
A360,none,0.62,0.42
C362,none,0.35,0.31
A368,none,0.81,1.00
A370,none,0.53,0.52
A371,none,0.94,0.95
A374,none,0.55,0.47
A376,none,0.78,0.74
A378,none,0.22,0.23
A379,none,0.61,0.60
A380,none,0.84,0.85
A385,none,0.54,0.52
A386,none,1.29,1.33
A387,none,0.24,0.24
A388,none,0.10,0.08
A389,none,0.22,0.17
A390,none,0.88,0.94
C393,none,0.66,0.67
A398,none,0.29,0.22
A399,none,0.39,0.30
C402,none,0.04,0.04
C403,none,0.04,0.04
A404,none,0.23,0.20
A410,none,0.39,0.40
A411,none,0.81,0.83
A412,none,0.51,0.54
A414,none,0.53,0.49
A415,none,0.25,0.24
A416,none,0.43,0.53
C417,none,0.84,0.95
A418,none,0.64,0.67
A419,none,0.50,0.49
A421,none,0.38,0.38
A423,none,0.47,0.43
A424,none,0.41,0.34
A425,none,0.56,0.53
C426,none,0.80,0.80
A428,none,0.10,0.10
A429,none,0.72,0.73
A430,none,0.59,0.55
A431,none,0.65,0.62
C432,none,0.94,0.94
A433,none,0.74,0.75
A435,none,0.53,0.51
A437,none,0.04,0.04

4 of these entries, quoted again:

- C316 (domain SL3) = 1G capped high-salt dimer 0.05; 1G capped high-salt monomer 0.10
- A336 (domain AUG) = 1G capped high-salt dimer 0.85; 1G capped high-salt monomer 0.87
- A418 = 1G capped high-salt dimer 0.64; 1G capped high-salt monomer 0.67
- A431 = 1G capped high-salt dimer 0.65; 1G capped high-salt monomer 0.62